From PubChem BioAssay AID504423 (Broad Institute, 2011)
The entries are a selection whose mix differs from that of the whole data set. Calls of active or inactive are those of the source.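 How the source made its calls: active means highest replicate inhibition at or above 60% at 9 µM, even if other replicates fall short; inactive means all replicates below 60% inhibition.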

Tested on: Kaposi's sarcoma herpesvirus LANA C-terminal domain (residues 932-1162) DNA binding
Experiment: blockers of LANA C-terminal domain DNA interaction – biochemical, fluorescence polarization, FAM-LBS DNA, MBP-C-LANA, single point, primary screen (AID 504423);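 further: 0% = neutral control wells and 100% = 4 µM acridine orange control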
Details: at 9 µM, hits give high values

Question: Which inhibition does the source give for `CP(=O)(Nc1ccc(Cl)cc1)Oc1ccc(F)cc1` (stereo not given) here?
Answer: inactive: 0.237%

Question: For `COc1ccccc1OP(C)(=O)Nc1ccccc1Br` (stereo not given), which inhibition is on record?
Answer: inactive: -59.1%

Question: With `CC(C)(C)c1ccc(OP(C)(=O)O)cc1` as the compound, how does the inhibition read?
Answer: inactive: -2.16%

Question: `CP(=O)(OC12CC3CC(CC(C3)C1)C2)OC12CC3CC(CC(C3)C1)C2` was tested. Which inhibition did it give?
Answer: inactive: -0.897%

Question: `CCOC(=O)c1ccc(NP(C)(=O)Oc2ccc(Cl)cc2)cc1` (stereo not given) was tested. Which inhibition did it give?
Answer: inactive: -1.08%

Question: `COc1ccccc1OP(C)(=O)Nc1ccccc1` (stereo not given) was tested. Which inhibition did it give?
Answer: inactive: -0.802%

Question: `CP(=O)(Nc1ccccc1Br)Oc1ccccc1` (stereo not given) was tested. Which inhibition did it give?
Answer: inactive: -0.514%

Question: `CP(=S)(Nn1cnnc1)Oc1ccccc1` (stereo not given) was tested. Which inhibition did it give?
Answer: inactive: 8.51%

Question: `Cc1cc(C)cc(OP(C)(=O)Nc2ccc(SC(F)(F)F)cc2)c1` (stereo not given) was tested. Which inhibition did it give?
Answer: inactive: -1.72%

Question: `CP(=O)(NC(=O)Nc1ccccc1)Oc1ccccc1` (stereo not given) was tested. Which inhibition did it give?
Answer: inactive: -0.0325%

Question: `CCc1ccc(OP(C)(=O)N2CCN(c3ccc([N+](=O)[O-])cc3)CC2)cc1` (stereo not given) was tested. Which inhibition did it give?
Answer: inactive: 5.1%

Question: With `CP(=O)(Oc1ccccc1)OC(c1ccccc1)C(F)(F)F` (stereo not given) as the compound, how does the inhibition read?
Answer: inactive: 0.645%

Question: For `Cc1cccc(C)c1OP(C)(=O)Nc1ccc(SC(F)(F)F)cc1` (stereo not given), which inhibition is on record?
Answer: inactive: -0.74%

Question: Which inhibition does the source give for `CP(=O)(Nc1ccccn1)Oc1ccc(Cl)cc1` (stereo not given) here?
Answer: inactive: 0.0655%

Question: With `CCOP(C)(=S)SCC(=O)NC(C)C(=O)O` (stereo not given) as the compound, how does the inhibition read?
Answer: inactive: -0.284%

Question: Which inhibition does the source give for `CCOC(=O)c1ccc(NP(C)(=O)Oc2ccc(OC)cc2)cc1` (stereo not given) here?
Answer: inactive: -5.98%

Question: `CCN(CC)CCCOC(=O)C(O)(c1ccccc1)c1ccccc1` was tested. Which inhibition did it give?
Answer: inactive: 1.71%

Question: For `Cc1cccc(C)c1OP(C)(N)=O` (stereo not given), which inhibition is on record?
Answer: inactive: -2.5%

Question: Which inhibition does the source give for `CC(C)(C)c1ccc(OP(C)(=O)Nc2ccc(SC(F)(F)F)cc2)cc1` (stereo not given) here?
Answer: inactive: 0.583%

Question: Which inhibition does the source give for `O=[N+]([O-])c1ccc2c(c1)C=Nc1ccccc1O2` here?
Answer: inactive: 0.359%

Question: How did the inhibition turn out when `O=[N+]([O-])c1cc([N+](=O)[O-])c(Nc2cccnc2)c([N+](=O)[O-])c1` was run?
Answer: inactive: -0.946%

Question: For `COc1ccc(OP(C)(=O)Nc2cccc(F)c2)cc1` (stereo not given), which inhibition is on record?
Answer: inactive: -1.66%

Question: How did the inhibition turn out when `COc1ccccc1OP(C)(=O)Nc1cc(Cl)ccc1C` (stereo not given) was run?
Answer: inactive: -0.384%

Question: For `Cc1cc(C)cc(OP(C)(N)=O)c1` (stereo not given), which inhibition is on record?
Answer: inactive: -0.492%

Question: For `CCOC(=O)c1ccc(NP(C)(=O)Oc2ccccc2)cc1` (stereo not given), which inhibition is on record?
Answer: inactive: 0.39%

Question: Which inhibition does the source give for `Cc1ccc(NP(C)(=O)Oc2ccccc2)c(C)c1` (stereo not given) here?
Answer: inactive: -2.69%

Question: How did the inhibition turn out when `COc1ccccc1OP(C)(=O)Nc1ccc(C)cc1` (stereo not given) was run?
Answer: inactive: 0.919%

Question: How did the inhibition turn out when `O=C(O)c1cccc(Nc2c([N+](=O)[O-])cc([N+](=O)[O-])cc2[N+](=O)[O-])c1` was run?
Answer: inactive: -1.6%

Question: How did the inhibition turn out when `CC1=NCCc2c1[nH]c1ccccc21.O=[N+]([O-])c1cc([N+](=O)[O-])c(O)c([N+](=O)[O-])c1` was run?
Answer: inactive: -0.537%

Question: Which inhibition does the source give for `Cc1cc(C)cc(OP(C)(=O)Nc2ccc(C)cc2C)c1` (stereo not given) here?
Answer: inactive: 2.03%

Question: For `CCOC(=O)c1ccc(NP(C)(=O)Oc2cc(C)cc(C)c2)cc1` (stereo not given), which inhibition is on record?
Answer: inactive: 1.17%

Question: Which inhibition does the source give for `COc1ccccc1OP(C)(=O)Nc1cccc(Br)c1` (stereo not given) here?
Answer: inactive: -0.139%

Question: How did the inhibition turn out when `Cc1cc(C)cc(OP(C)(=O)Nc2ccccn2)c1` (stereo not given) was run?
Answer: inactive: 0.375%

Question: Which inhibition does the source give for `CP(=O)(Nc1cccc(Br)c1)Oc1ccccc1` (stereo not given) here?
Answer: inactive: -0.449%

Question: How did the inhibition turn out when `Cc1ccc(C)c(NP(C)(=O)Oc2ccccc2)c1` (stereo not given) was run?
Answer: inactive: -2.25%

Question: With `O=[N+]([O-])c1cc([N+](=O)[O-])c(-n2nnc3ccccc32)c([N+](=O)[O-])c1` as the compound, how does the inhibition read?
Answer: inactive: -0.234%

Question: For `Cc1nc2ccc3ccccc3c2s1.O=[N+]([O-])c1cc([N+](=O)[O-])c(O)c([N+](=O)[O-])c1`, which inhibition is on record?
Answer: inactive: -1.06%

Question: How did the inhibition turn out when `O=[N+]([O-])c1cc([N+](=O)[O-])c(-c2cnn(-c3ccccc3)c2)c([N+](=O)[O-])c1` was run?
Answer: inactive: -0.179%

Question: Which inhibition does the source give for `CCOC(=O)C(CC)C1=NC(C)(C)Cc2ccccc21.O=[N+]([O-])c1cc([N+](=O)[O-])c(O)c([N+](=O)[O-])c1` (stereo not given) here?
Answer: inactive: -0.859%

Question: With `CC1=C2N=C(C=C3N=C(C(C)=C4[N-][C@@](C)([C@@H]5N=C1[C@](C)(CCC(=O)NC[C@@H](C)OP(=O)([O-])O[C@H]1[C@@H](O)[C@@H](n6cnc7cc(C)c(C)cc76)O[C@@H]1CO)[C@H]5CC(N)=O)[C@@](C)(CC(N)=O)[C@@H]4CCC(N)=O)[C@@](C)(CC(N)=O)[C@@H]3CCC(N)=O)C(C)(C)[C@@H]2CCC(N)=O.[C-]#N.[Co+3]` as the compound, how does the inhibition read?
Answer: inactive: 3.41%

Question: With `O=[N+]([O-])c1cc([N+](=O)[O-])c(Nc2nnnn2CCO)c([N+](=O)[O-])c1` as the compound, how does the inhibition read?
Answer: inactive: -1.02%

Question: How did the inhibition turn out when `CCCOc1ccc(NP(C)(=O)Oc2ccc(Cl)cc2)cc1` (stereo not given) was run?
Answer: inactive: 1%

Question: Which inhibition does the source give for `CP(=O)(Nc1ccc(SC(F)(F)F)cc1)Oc1ccccc1` (stereo not given) here?
Answer: inactive: 0.714%

Question: For `CN1CCCCC1COC(=O)C1(O)c2ccccc2CCc2ccccc21` (stereo not given), which inhibition is on record?
Answer: inactive: 0.71%

Question: With `COc1ccccc1OP(C)(=O)Nc1c(C)cccc1C` (stereo not given) as the compound, how does the inhibition read?
Answer: inactive: -1.18%
